# “Also recorded” adds a separate entry of the source.
# Assays:
# [1] = test system: Ep-CAM-positive SW2 and Ep-CAM-negative COLO320 xenografts; test: Biodistribution of radiolabeled VB4-845 in xenograft-bearing mice; type: in vivo
# [2] = test system: Ep-CAM^high cell lines (HuH-7, HepG2, Hep3B and HuH-1); test: Sphere formation assay; type: cell-based, human; conditions: 48 h treatment (VB4-845 1-10 pM, 5-FU 1-5 μg/ml), 7 days of culture
# Description: Briefly, 1×10^6 cells of HuH-7, HepG2, Hep3B and HuH-1 were seeded in four 10 cm dishes. […] After 48h, the medium was changed to drug-free medium and incubated for 24 h. After cell viability was confirmed by trypan blue exclusion, the remaining viable cells were collected and plated separately at 1×10^2 cells in low attachment plates (96-well Ultra Low Cluster Plate; Costar, Corning, N.Y.), and incubated in serum-free Dulbecco's modified Eagle medium/F12 medium (Invitrogen). Sphere formation was observed using AxioObserver (Carl Zeiss, Oberkochen, Germany), and the images were acquired digitally using AxioVision software (Carl Zeiss).
# [3] = Analytical gel filtration, thermal stability at 37° C. in PBS; type: physicochemical
# Description: The shelf-life of the product when stored at −70° C. is at least six months. At physiological conditions (e.g., incubation of the drug product for four hours at 37° C. in PBS), the majority of the immunoconjugate molecules (at least 91%) are still eluted as monomers of the appropriate molecular weight (approximately 70 kDa).
# Analytical gel filtration and determination of thermal stability. […] Samples were analyzed at different time points (after 0 h, 2 h, 4 h, 8 h, 10 h and 20 h) by gel filtration using the Smart system (Pharmacia, Uppsala) with a Superose-12 PC3.2/30 column. The column was calibrated in the same buffer with three protein standards: alcohol dehydrogenase (Mr 150,000), bovine serum albumin (Mr 66,000) and carbonic anhydrase (Mr 29,000). The same analytical setting was used to assess the thermal stability of the 99m Tc-labeled immunoconjugate after a 20 h incubation at 37° C. in human serum. The amount of immunoconjugate monomers was determined by g-scintillation counting of the eluted fractions.
# CD13 = test: FACS analysis of stem/progenitor marker CD13 after treatment; type: cell-based, human; conditions: HuH-7 and Hep3B cells
# Description: (§1) For flow cytometry, FACSCanto™ II (BD Biosciences, San Jose, Calif.) was used. Cancer cells were washed with phosphate-buffered saline, and then enzymatically dissociated with 0.05% trypsin-EDTA (Invitrogen). The trypsinized cells were suspended in FACS buffer, and analyzed on FACSCanto™ II using FACSDiva software (BD Biosciences). For the analysis of hepatic stem/progenitor markers, primary antibodies against Ep-CAM (#324206; Biolegend, San Diego, Calif.), CD13 (#555394; BD Pharmingen), CD44 (#555479; BD Pharmingen), CD90 (#328110; BioLegend), CD133 (#130-080-801; Miltenyi Biotec, Gladbach, Germany), Mouse IgG1 κtype (#555749; BioLegend), and Mouse IgG2b κtype (#400314; BioLegend) were used. All antibodies were conjugated directly with phycoerythrin (PE). The immunostaining and analysis were performed according to the instructions from the manufacturer.
# (§2) These markers were chosen because they were reported as biomarkers of HCC with poor prognosis. […] There was no consistent tendency for the positive rate of CD44 and CD90 after the treatment of each cell line.
# CD133 = test: FACS analysis of stem/progenitor marker CD133 after treatment; type: cell-based, human; conditions: HuH-7, HepG2, and Hep3B cells, compared with the control
# Description: as §1, §2
# [4] = test system: MCF-7 breast cancer cells; test: Mammosphere re-plating assay with Trypan Blue exclusion; type: cell-based
# [5] = Shelf-life and short term stability studies of the product; type: physicochemical
# Description: The sample product is labeled, stored, and shipped according to written and approved standard operating procedures. The product may be shipped under frozen conditions (e.g., on dry ice), and may be maintained, for example, at the study site in a limited access, controlled −70° C. freezer that is monitored regularly for temperature. The product may be maintained at this condition until time of use.
# Short term stability studies have been conducted to evaluate the inherent stability of the investigational product under routine handling at the clinical site.
# [6] = Short term stability in biological fluid (human plasma, serum and urine); type: in vitro ADME; conditions: up to 16 hrs incubation
# [7] = Protein properties of VB4-845 (isoelectric point, water solubility); type: physicochemical
# Description: The resulting protein retains the specificity of the parent 4D5MOCB for Ep-CAM. The expression vector for the protein, pING3302 (Plasmid pING3302 from Xoma Ireland Ltd was used for the construction of the expression vector) is carried and expressed by the E 104 E. coli host strain. The protein is 648 amino acids in length and has a predicted molecular weight of 69.7 kilodaltons (kDa).
# [8] = test system: HuH-7 subcutaneous xenografts; test: Subcutaneous xenograft model; type: in vivo, NOD.CB17-PRkdcScid/J mice; conditions: three weeks after initiation; VB4-845 30 μg/kg i.v., 5-FU 30 mg/kg i.p., three times a week for 2 weeks
# Description: Twenty five-week-old female NOD.CB17-PRkdcScid/J mice purchased from Charles River Laboratory Inc. (Kanagawa, Japan) were injected with 1×10^6 HuH-7 cells mixed with the same amount of Matrigel (BD Biosciences) subcutaneously into the both flanks of mice under anesthesia. […] Tumor size was measured using calipers three times a week and tumor volumes calculated using the following equation: volume=(length)×(width)2×0.5. The mice were sacrificed three weeks after the initiation of treatment.
substance,measurement,setting,value
VB4-845,dose detected in SW2 tumors,[1]; 24 hours,1.95 % ID/g
same,dose detected in SW2 tumors,[1]; 48 hours,1.13 % ID/g
same,total dose in the blood,[1]; after 24 hours,0.42 % ID/g
same,dose in COLO320 control tumors,[1]; after 48 hours,only background levels
same,dose in COLO320 control tumors,[1]; after four hours,1.06 % ID/g
same,dose detected in SW2 tumors,[1]; after four hours (maximum),2.93 % ID/g
same,dose in COLO320 control tumors,[1]; after thirty minutes (maximum),1.65 % ID/g
same,blood clearance,[1]; compared with parental scFv,slower blood clearance than the parental scFv
same,localization in normal tissues,"[1]; mouse, in vivo","localized in the kidney, spleen, liver and to a lower extent in the bone"
same,sphere formation by surviving cells,[2],did not form such spheres
same,initial protein present in monomeric form,[3]; after twenty hours at 37° C.,≥ 47%
same,immunoconjugate molecules still eluted as monomers,[3]; four hours at 37° C. in PBS,at least 91%
same,positive rate of CD13,CD13,significantly decreased
same,positive rate of CD133,CD133,significantly decreased
same,cytotoxicity by Trypan Blue,[4]; Day 10 post re-plating,"cytotoxic, but not cytostatic; also recorded: Cytotoxicity was confirmed"
same,sphere formation after re-plating,"[4]; test items removed from the culture media, 7 days",no spheres were formed; also recorded: failed to produce any spheres
same,stable in original packaging,"[5]; refrigerated, 2-8° C.",at least 24 hours
same,stable in original packaging,[5]; room temperature,at least 20 hours
same,biological activity over short-term stability studies,"[5]; room temperature, 2-8° C., injection buffer with and without 800 mM urea up to six hours, repeated freeze-thaw",retain its biological activity
same,shelf-life,[5]; stored at −70° C.,at least six
same,retains binding property and cell toxicity,[6],at least 16 hrs
same,isoelectric point (pI),[7],approximately 5.9
same,water solubility,[7],water-soluble forming a clear solution
same,volume of tumors,[8],476±134 mm^3
